Assay results published in patent publication US12636285B2 (dated 2026).

System: HIV-1
Conditions: in vivo

SMILES: C[C@H]1CO[C@@H]2Cn3cc(C(=O)NCc4ccc(F)cc4F)c(=O)c(O)c3C(=O)N12 [Cabotegravir, (3S,11aR)-N-[(2,4-difluorophenyl)methyl]-6-hydroxy-3-methyl-5,7-dioxo-2,3,5,7,11,11a-hexahydro[1,3]oxazolo[3,2-a]pyrido[1,2-d]pyrazine-8-carboxamide]
- phenotypic resistance conferred by IN L74I at baseline: no detectable phenotypic resistance
